Assay results published in PMC9426601 (mBio, 2022).
Values joined by “and” are separate entries in the source; they are usually repeats but may differ in a detail not shown here. Equal entries are not always repeated.

System: A(H1N1pdm09) 100% WT
Design: species or system ferrets (Mustela putorius furo)
Settings: in vivo

| Structure (SMILES) | Serum antibody hemagglutinin inhibition (HAI) response |
| --- | --- |
| CCOC(=O)C1=C[C@@H](OC(CC)CC)[C@H](NC(C)=O)[C@@H](N)C1 [Oseltamivir, oseltamivir] | 2560 |
| O=C1c2c(O)c(=O)ccn2N([C@@H]2c3ccccc3SCc3c2ccc(F)c3F)[C@@H]2COCCN12 [Baloxavir, baloxavir acid] | 1280 and 2560 |
